From paper PMC3916700

Target: HIV-1 capsid (CA) A92E mutant (HIV-1)

Cyclophilin A (from UniProt P62937 1-165) (enzyme)
infectivity (percent GFP+ cells 72 hrs after transduction), ratio of 5 μM CsA to DMSO, H9 cells: 6 fold | infectivity (percent GFP+ cells 72 hrs after transduction), ratio of 5 μM CsA to DMSO, HeLa cells: 11 fold
